Taken from: PubChem BioAssay AID1259414 (Drosophila RNAi Screening Center, 2018)
Assay: 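Genome-wide screen for host control of endosymbiont load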 (primary screen). Cell system: Drosophila JW18 cells infected with Wolbachia. Reagents: long dsRNA against Drosophila genes, 0.25 µg dsRNA per well of a 384-well plate. Timing: 5 days. Treatment: cells persistently infected with Wolbachia before knock-down; no added drug. Read-out: 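Automated imaging of bacterial rRNA staining divided by host cell count, reported as plate-normalised robust z-score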. Direction: Wolbachia per cell robust z: higher = more Wolbachia per host cell than the plate typical. Hit rule: 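Hit when robust z is 1.5 or more, or -1.5 or less, in at least two of three replicates; excludes dsRNAs with several or no targets, genes not expressed in JW18 and well A1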.
In all, the deposit lists about 24,000 reagents; this is a random part of those with a known target gene and a result. Over the whole deposit, about 1,210 (5%) are marked active. 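Inactive calls also include excluded dsRNAs with several or no targets, genes unexpressed in JW18, and well A1, regardless of score.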 Names joined by + are all predicted targets of the reagent.

Gene	amplicon	Wolbachia per cell robust z, rep 1	Wolbachia per cell robust z, rep 2	Wolbachia per cell robust z, rep 3	Call
CG11373 (GeneID 50152)	DRSC12170	-1.93	0.181	-1.47	inactive
Spn28B (GeneID 34035)	DRSC02982	0.396	1.02	0.095	inactive
lqf (GeneID 38846)	DRSC11363	-0.781	0.143	-0.0623	inactive
lqf (GeneID 38846)	DRSC27882	-6.85	1.33	0.293	inactive
Hou (GeneID 32852)	DRSC20001	-2.47	-1.48	-1.26	inactive
Hou (GeneID 32852)	DRSC22347	-0.199	-0.332	0.0758	inactive
Hou (GeneID 32852)	DRSC26803	-0.41	-0.393	0.324	inactive
CG7236 (GeneID 33798)	DRSC03037	2.53	1.57	2.33	inactive
CG7236 (GeneID 33798)	DRSC26976	-0.815	1.19	-0.551	inactive
CG7236 (GeneID 33798)	DRSC41585	-1.87	-1.41	-0.0332	inactive
CG14115 (GeneID 39487)	DRSC10118	0.269	0.0547	-0.648	inactive
rho-6 (GeneID 34640)	DRSC02588	-4.67	-0.887	-0.307	inactive
rho-6 (GeneID 34640)	DRSC29070	-0.675	-1.73	-0.98	inactive
Pex7 (GeneID 38994)	DRSC10651	0.936	1.3	0.951	inactive
CG31093 (GeneID 43116)	DRSC15689	0.866	-0.133	-3.64	inactive
chic (GeneID 33834)	DRSC03507	1.5	0.844	-0.185	inactive
chic (GeneID 33834)	DRSC40795	-1.76	0.77	-1.9	active
PGS1 (GeneID 42254)	DRSC16304	0.421	0.791	0.827	inactive
fy (GeneID 34166)	DRSC03533	-0.661	0.398	-0.698	inactive
fy (GeneID 34166)	DRSC25931	-1.71	-0.00109	0.105	inactive
CG5068 (GeneID 39032)	DRSC10476	0.453	-0.996	0.608	inactive
Cpsf5 (GeneID 39083)	DRSC10374	0.904	0.634	-0.224	inactive
Cpsf5 (GeneID 39083)	DRSC27451	0.349	-3.34	1.03	inactive
CG42362 + CG42363	DRSC04265	1.27	0.101	-0.226	inactive
sesB (GeneID 32007)	DRSC20371	0.739	0.965	-5.15	inactive
sesB (GeneID 32007)	DRSC29874	1.19	-1	1.08	inactive
Vinc (GeneID 31201)	DRSC18728	0.694	0.647	0.326	inactive
Obp19b (GeneID 33038)	DRSC20536	-1.56	-1.73	-3.27	inactive
Obp19b (GeneID 33038)	DRSC28944	-0.567	-0.0578	-0.704	inactive
CG6209 (GeneID 36517)	DRSC06968	-3.29	-0.549	0.444	inactive
CG6209 (GeneID 36517)	DRSC28800	-1.12	0.235	-0.495	inactive
Pgant9 (GeneID 246627)	DRSC05621	-1.05	-0.0158	-0.369	inactive
Pgant9 (GeneID 246627)	DRSC06584	-2.58	-0.963	-0.431	inactive
Pgant9 (GeneID 246627)	DRSC07185	-1.46	-0.19	-0.135	inactive
Pgant9 (GeneID 246627)	DRSC07186	-2.27	0.7	-2.61	active
Pgant9 (GeneID 246627)	DRSC07187	0.481	0.844	-0.164	inactive
Pgant9 (GeneID 246627)	DRSC07189	-0.317	-0.125	-0.0036	inactive
MtnA (GeneID 41202)	DRSC21588	-1.54	-1.13	-0.892	inactive
CG13293 (GeneID 38695)	DRSC09967	-0.0932	0.371	0.317	inactive
Ufd4 (GeneID 34378)	DRSC02871	0.539	0.715	-2.93	inactive
alpha-Catr (GeneID 49713)	DRSC04669	-0.177	-3.97	-2.08	inactive
alpha-Catr (GeneID 49713)	DRSC28046	-0.219	0.796	1.26	inactive
CG12589 (GeneID 50157)	DRSC12215	-0.215	0.283	0.326	inactive
CG13202 (GeneID 36222)	DRSC06326	-0.166	0.734	-1.13	inactive
Polr1D (GeneID 35196)	DRSC41343	1.16	0.828	-0.86	inactive
CG6790 (GeneID 41388)	DRSC16117	-1.8	-0.489	-0.556	inactive
Ir94b (GeneID 318728)	DRSC21439	-0.878	-0.709	-0.625	inactive
Or85b (GeneID 41007)	DRSC16765	1.19	-0.794	1.07	inactive
thoc7 (GeneID 38033)	DRSC08512	0.17	0.414	0.559	inactive
thoc7 (GeneID 38033)	DRSC29470	1.15	0.28	-0.355	inactive
RfC3 (GeneID 34423)	DRSC03411	-0.599	0.861	-0.608	inactive
CheB74a (GeneID 3772073)	DRSC38835	0.678	-0.151	0.422	inactive
pcm (GeneID 32935)	DRSC20361	-0.224	-4.08	-0.321	inactive
nkt (GeneID 39264)	DRSC10144	0.534	0.865	-0.0783	inactive
CG14024 (GeneID 33760)	DRSC00868	-1.59	-1.15	-3.04	active
CG14024 (GeneID 33760)	DRSC02354	-1.6	-3.12	-1.54	active
Rop (GeneID 38493)	DRSC08693	5.74	5.05	7.9	active
Rop (GeneID 38493)	DRSC26024	5.35	3.99	8.14	active
CG18259 + CG6961	DRSC20019	-0.382	-1.32	-0.53	inactive
Lst (GeneID 36853)	DRSC07146	-2.8	0.324	-0.249	inactive
Lst (GeneID 36853)	DRSC29304	-2.24	0.654	-0.209	inactive
CG3987 (GeneID 41822)	DRSC15531	-2.12	-2.02	1.93	inactive
CG34273 (GeneID 5740836)	DRSC38819	0.372	-1.96	-0.688	inactive
GstD1 (GeneID 41503)	DRSC16683	-3.05	-4.17	-0.0271	active
GstD1 (GeneID 41503)	DRSC27603	-0.917	-1.87	-0.243	inactive
Arp53D (GeneID 36879)	DRSC05923	0.541	-0.328	0.509	inactive
Mal-A1 (GeneID 35824)	DRSC07461	0.0235	0.102	-5.96	inactive
Mal-A1 (GeneID 35824)	DRSC29096	-1.25	-2.32	0.0454	inactive
MED4 (GeneID 38799)	DRSC11014	-0.209	-1.44	-0.637	inactive
MED4 (GeneID 38799)	DRSC25135	1.33	0.709	-0.332	inactive
spas (GeneID 42846)	DRSC15929	0.201	-0.738	1.63	inactive
CG43736 (GeneID 3771905)	DRSC18370	-0.735	-7.12	-4.24	active
CG43736 (GeneID 3771905)	DRSC18371	0.0172	0.329	-0.433	inactive
CG43736 (GeneID 3771905)	DRSC27351	-0.663	-0.176	0.376	inactive
CG43736 (GeneID 3771905)	DRSC39100	-0.457	-2.51	0.021	inactive
CG6067 (GeneID 31529)	DRSC18399	-0.132	-0.0604	-0.0682	inactive
fs(1)N (GeneID 45973)	DRSC18578	1.21	-2.78	0.0178	inactive
gsb (GeneID 38005)	DRSC04692	-0.488	0.347	0.0792	inactive
gsb (GeneID 38005)	DRSC25821	0.491	1.3	-0.169	inactive
Gr77a (GeneID 117476)	DRSC11446	-1.54	-10.4	-1.47	inactive
Gr77a (GeneID 117476)	DRSC26808	0.892	0.969	-0.587	inactive
Cpr78Cc (GeneID 40355)	DRSC11846	0.825	-0.144	1.34	inactive
CG9458 (GeneID 41214)	DRSC16495	1.21	-2.87	-0.393	inactive
CG3270 (GeneID 35575)	DRSC04988	0.0904	-0.45	0.0951	inactive
CG13928 (GeneID 38195)	DRSC08397	0.13	0.0618	0.935	inactive
CG18764 (GeneID 59239)	DRSC15391	0.581	0.184	-0.317	inactive
CG8349 (GeneID 34124)	DRSC03083	0.329	-0.259	0.786	inactive

Entries listed so far whose target name starts with G or g (6):
Gene	amplicon	Wolbachia per cell robust z, rep 1	Wolbachia per cell robust z, rep 2	Wolbachia per cell robust z, rep 3	Call
GstD1 (GeneID 41503)	DRSC16683	-3.05	-4.17	-0.0271	active
GstD1 (GeneID 41503)	DRSC27603	-0.917	-1.87	-0.243	inactive
gsb (GeneID 38005)	DRSC04692	-0.488	0.347	0.0792	inactive
gsb (GeneID 38005)	DRSC25821	0.491	1.3	-0.169	inactive
Gr77a (GeneID 117476)	DRSC11446	-1.54	-10.4	-1.47	inactive
Gr77a (GeneID 117476)	DRSC26808	0.892	0.969	-0.587	inactive
